Measured values from several laboratories, pooled; numbers as filed in NIAID ChemDB.

Shared fields: tests in culture; organism: HIV-1

Fold resistance has wild type as its base. Lines come from different laboratories, so protocols vary. ECn: concentration that inhibits the pathogen or its effect by n%. Blank or dashed fields: not listed here.

{"SMILES": "COc1ccc(S(=O)(=O)N(CC(O)CN(CC2CCCC2)S(=O)(=O)c2ccccc2)CC2CCCC2)cc1", "strain": "IIIB", "cells": "CEM", "method": "p24", "measure": "EC90", "value": "1 µM"}
{"SMILES": "Cc1cc(S(N)(=O)=O)ccc1NC(=O)COc1ccc(Cl)cc1C(=O)c1cc(F)cc(C#N)c1", "strain": "HXB2 (RT-K103N G190A) Recombinant", "changes": "RT-K103N G190A", "cells": "HeLa + HELA CD4+", "method": "β-galactosidase", "measure": "fold resistance", "value": "~10"}
{"SMILES": "COc1ccc(S(=O)(=O)N(CC2CCCC2)C[C@@H](O)CN(CCCc2ccccc2)C(=O)O[C@H]2CCOC2)cc1", "strain": "IIIB", "cells": "CEM", "method": "p24", "measure": "EC90", "value": "0.1 µM"}
{"SMILES": "O=C1Nc2ccc(Cl)cc2[C@@](/C=C/C2CC2)(C(F)(F)F)N1", "changes": "RT-K103N Y181C", "measure": "EC90", "value": "~0.12 µM"}
{"SMILES": "Cc1cc(C#N)cc(C(=O)c2cc(Cl)ccc2OCC(=O)Nc2ccc(S(N)(=O)=O)nc2C)c1", "strain": "HXB2", "changes": "RT-V108I", "cells": "HeLa + HELA CD4+", "method": "β-galactosidase", "measure": "fold resistance", "value": "~1"}
{"SMILES": "COc1ccc(S(=O)(=O)N(CC(C)C)C(=O)C(=O)C(=O)[C@@H](Cc2ccccc2)NC(=O)OC2COCOC2)cc1", "strain": "IIIB", "cells": "CEM", "method": "p24", "measure": "EC90", "value": "1 µM"}
{"SMILES": "Cc1cc(S(N)(=O)=O)ccc1NC(=O)COc1ccc(Cl)cc1C(=O)c1cc(F)cc(F)c1", "strain": "HXB2", "changes": "RT-V106I", "cells": "HeLa + HELA CD4+", "method": "β-galactosidase", "measure": "fold resistance", "value": "~1"}
{"SMILES": "O=C1Nc2ccc(Cl)cc2[C@@](C#CC2CC2)(C(F)(F)F)N1", "changes": "RT-K101E", "measure": "EC90", "value": "<0.012 µM"}
{"SMILES": "COc1ccc(S(=O)(=O)N(CC(C)C)CC(O)CNc2ccccc2C(=O)NC(C)(C)C)cc1", "strain": "IIIB", "cells": "CEM", "method": "p24", "measure": "EC90", "value": "1 µM"}
{"SMILES": "CCC(=O)c1ccc(F)c([C@@H]2C[C@@H]2NC(=O)Nc2ccc(C#N)cn2)c1O", "strain": "LAI", "changes": "NNRTI-resistant (RT K103S)", "cells": "TZM-bl", "method": "β-galactosidase / luminescence", "measure": "fold resistance", "value": "22.7"}
{"SMILES": "CCc1cc(C#N)cc(C(=O)c2cc(Cl)ccc2OCC(=O)Nc2ccc(S(N)(=O)=O)cc2C)c1", "strain": "HXB2", "changes": "RT-K103N V108I", "cells": "HeLa + HELA CD4+", "method": "β-galactosidase", "measure": "fold resistance", "value": "~1"}
{"SMILES": "CC(C)=CCOc1cc(NC(=S)c2ccoc2C)ccc1Cl", "strain": "4XAZT+Y181C (RT D67N K70R Y181C T215Y K219Q)", "changes": "RT-D67N K70R Y181C T215Y K219Q", "cells": "CEM + CEM-SS", "method": "p24", "measure": "fold resistance", "value": "33"}
{"SMILES": "COc1ccc(S(=O)(=O)N(CC[C@@H](O)CN(CC(C)C)S(=O)(=O)c2ccc(OC)cc2)CC(C)C)cc1", "strain": "IIIB", "cells": "CEM", "method": "p24", "measure": "EC90", "value": "1 µM"}
{"SMILES": "O=C(O)c1cc(-n2cccc2)ccc1Cl", "strain": "93UG065 X4 CLADE D", "cells": "PBMC/5.25M7", "method": "luciferase / cell fusion", "measure": "EC90", "value": "136 µM"}
{"SMILES": "Cc1cc(S(N)(=O)=O)ccc1NC(=O)COc1ccc(Cl)cc1C(=O)c1cccc(C#N)n1", "strain": "HXB2", "changes": "RT-Y181C", "cells": "HeLa + HELA CD4+", "method": "β-galactosidase", "measure": "fold resistance", "value": "~1"}

The first 2 rows once more:

SMILES,strain,changes,cells,method,measure,value
COc1ccc(S(=O)(=O)N(CC(O)CN(CC2CCCC2)S(=O)(=O)c2ccccc2)CC2CCCC2)cc1,IIIB,-,CEM,p24,EC90,1 µM
Cc1cc(S(N)(=O)=O)ccc1NC(=O)COc1ccc(Cl)cc1C(=O)c1cc(F)cc(C#N)c1,HXB2 (RT-K103N G190A) Recombinant,RT-K103N G190A,HeLa + HELA CD4+,β-galactosidase,fold resistance,~10